The target of this assay is Soluble DR1 (sDR1) (human). Description: FP competition assay, average of n=2.

Usually IC50 stands for the concentration that gives 50% inhibition. A low value points to greater potency. With HA peptide, the IC50 was 72 nM.

The values are drawn from patent US20200279616A1.
